Compound potency records, mixed from different reports. Data source: NIAID ChemDB in PubChem.

Shared fields: tests in culture; organism: Hepatitis C virus; method: replicon; measure: EC50

Rows are shuffled and stem from different studies. Blank or dashed fields: not listed here. ECn: concentration that inhibits the pathogen or its effect by n%. Two numbers with a dash give a range or band.

structure	strain	cell line	result
CC1CCC(C(=O)N(c2cc(-c3ccc(NC(=O)c4ccc(F)cc4)s3)sc2C(=O)O)C(C)C)CC1	1a	-	>0.5 µM
CNC(=O)c1c(-c2ccc(F)cc2F)oc2ccc(OC(C)C)cc12	-	Huh7	<30 µM
NS(=O)(=O)c1ccc(CNc2nc(C3CC3)c3nc(-c4ccc(F)cc4)ccc3n2)cc1	-	-	<0.1 µM
COc1ccccc1C(=O)N/N=C/c1ccccc1OS(=O)(=O)c1ccc(C(F)(F)F)cc1	-	Huh7	>50 µM
CN(C)C(=O)C1=Cc2ccccc2-c2c(C3CCCCC3)c3ccc(C(=O)NS(=O)(=O)N(C)C)cc3n2C1	-	Huh7	0.01–1 µM
Cc1cc(C(=O)Nc2ccc(-c3cc(N(C(=O)C4CCC(C)CC4)C(C)C)c(C(=O)O)s3)cc2)n(C)n1	1a	-	>0.5 µM
CNC(=O)c1c(-c2ccc(F)cc2)oc2cc(N(CC(C)O)S(C)(=O)=O)c(OC(C)C)cc12	-	Huh7	<1 µM
CS(=O)(=O)CCNc1nc(N)nc2ccc(-c3ccc(C(=O)NC4CC4)cc3)nc12	-	Huh7	0.3–1 µM
CC1CCC(C(=O)N(c2cc(-c3ccc(NC(=O)c4cscn4)cc3)sc2C(=O)[O-])C(C)C)CC1.C[N+](C)(C)CCO	1a	-	<0.5 µM
CS(=O)(=O)Nc1ccc(CNc2nc(NCC(F)(F)F)c3nc(-c4ccc(F)cc4)ccc3n2)cc1	-	-	<0.1 µM
COc1cccc(CNc2cccc(CC(=O)N/N=C/c3ccccc3OS(=O)(=O)c3ccc(C(F)(F)F)cc3)c2)c1	-	Huh7	>50 µM
C=CCOc1cc2c(C(=O)NC)c(-c3ccc(F)cc3)oc2cc1NCC	-	Huh7	<1 µM
O=C(COc1ccccc1)N/N=C/c1ccccc1OS(=O)(=O)c1ccc(C(F)(F)F)cc1	-	Huh7	<5 µM
CCOc1nc(NCc2ccc(F)cc2)nc2ccc(-c3cnc(NC(=O)C4CC4)nc3)nc12	-	-	<0.1 µM
NC(=O)COc1ccc2c(c1)S(=O)(=O)N=C(c1c(O)c3cc(F)ccc3n(CCC3CC3)c1=O)N2	1a 33779	-	0.45 µM
Cc1ccoc1C(=O)Nc1ccc(-c2cc(N(C(=O)C3CCC(C)CC3)C(C)C)c(C(=O)O)s2)cc1	1a	-	<0.5 µM
Nc1ccccc1Cn1c(C(=O)O)c(-c2ccccc2F)c2c3ccccc3ccc21	-	-	>10 µM
CCOc1nc(NCc2ccc(C(F)(F)F)c(F)c2)nc2ccc(-c3ccc(F)cc3)nc12	-	-	<0.1 µM
COC(=O)c1ccc2c(C3CCCCC3)c3n(c2c1)C(O)c1cc(Cl)ccc1-3	-	Huh7	0.01–1 µM
CS(=O)(=O)NC(=O)c1c(-c2ccc[nH]c2=O)c2c3ncsc3ccc2n1Cc1ccccc1F	-	-	<0.5 µM
CCc1cc2c(C(=O)NC)c(-c3ccc(F)cc3)oc2cc1N(CCF)S(C)(=O)=O	-	Huh7	<1 µM
C=CC1CC1(NC(=O)[C@@H]1C[C@@H](OC(=O)Nc2cc(Cl)cc(Cl)c2)CN1C(=O)[C@@H](NC(=O)OC(C)(C)C)C(C)(C)C)C(=O)NS(=O)(=O)C1CC1	1b	Huh7	0.1–1 µM
CC1CCC(C(=O)N(CC2CC2)c2cc(-c3ccc(NC(=O)c4ccn[nH]4)cc3)sc2C(=O)O)CC1	1a	-	<0.5 µM
O=C(Cc1ccccc1)N/N=C/c1ccccc1OS(=O)(=O)c1cccc(Br)c1	-	Huh7	5–50 µM
CS(=O)(=O)NC(=O)c1c(-c2ccc[nH]c2=O)c2c3occc3c(F)cc2n1Cc1ccc2nc(N)[nH]c2c1	-	-	<0.5 µM
Cc1ncccc1C(=O)N/N=C/c1ccccc1OS(=O)(=O)c1ccc(C(F)(F)F)cc1	-	Huh7	5–50 µM
CC1CCC(C(=O)N(c2cc(-c3ccc(NC(=O)c4ccc(CO)o4)cc3)sc2C(=O)O)C(C)C)CC1	1a	-	<0.5 µM
C=CC1CC1(NC(=O)[C@@H]1C[C@@H](OC(=O)Nc2ccccc2I)CN1C(=O)[C@@H](NC(=O)OC(C)(C)C)C(C)(C)C)C(=O)NS(=O)(=O)C1CC1	1b	Huh7	0.1–1 µM
CCc1coc2c1ccc1c2c(-c2ccc[nH]c2=O)c(C(=O)O)n1Cc1ccccc1F	-	-	>1.5 µM
CC1CCC(C(=O)N(c2cc(-c3ccc(NC(=O)c4ccccn4)nc3)sc2C(=O)O)C(C)C)CC1	1b	-	<0.5 µM
CCOc1nc(N)nc2ccc(-c3ccc(Nc4nncs4)cc3)nc12	-	Huh7	0.3–1 µM
C=CC1CC1(NC(=O)[C@@H]1C[C@@H](OC(=O)Nc2ccccc2Br)CN1C(=O)[C@@H](NC(=O)OC(C)(C)C)C(C)(C)C)C(=O)NS(=O)(=O)C1CC1	1b	Huh7	0.1–1 µM
CNC(=O)c1c(-c2ccc(F)cc2)oc2cc(OCc3nnnn3C)c(OC)cc12	-	Huh7	<1 µM
CCOc1nc(NCCS(N)(=O)=O)nc2ccc(-c3ccc(F)cc3)nc12	-	-	<0.1 µM
CNC(=O)c1c(-c2ccc(F)c(C)c2)oc2ccc(OC)cc12	-	Huh7	<30 µM
COc1ccc(S(=O)(=O)NC(=O)c2c(-c3ccc[nH]c3=O)c3c4ccoc4ccc3n2Cc2ccc(F)cc2F)cc1	-	-	>1.5 µM
COc1cccc(CC(=O)N/N=C/c2ccc(Cl)cc2OS(=O)(=O)c2ccc(C)cc2)c1	-	Huh7	<5 µM
Nc1noc2ccc(Cn3c(C(=O)O)c(-c4ccc[nH]c4=O)c4c5occc5c(F)cc43)cc12	-	-	<0.5 µM
C[C@@H]1CN(C(=O)C2=Cc3ccccc3-c3c(C4CCCCC4)c4ccc(C(=O)O)cc4n3C2)C[C@H](C)O1	-	Huh7	0.01–1 µM
Cc1ccccc1S(=O)(=O)Oc1ccccc1/C=N/NC(=O)Cc1ccccc1	-	Huh7	>50 µM
CNC(=O)c1c(-c2ccc(F)cc2)oc2cc(C)c(OC)cc12	-	Huh7	<10 µM
COCCN(C(=O)C1CCC(C)CC1)c1cc(-c2ccc(NC(=O)c3cn(C)cn3)cc2)sc1C(=O)O	1a	-	<0.5 µM
COC(=O)Nc1ccc(-c2ccc3nc(N)nc(N4CCS(=O)(=O)CC4)c3n2)cc1	-	Huh7	<0.3 µM
COc1cccc(CC(=O)N/N=C/c2ccncc2OS(=O)(=O)c2ccc(C(F)(F)F)cc2)c1	-	Huh7	<5 µM
Cc1cccnc1C(=O)Nc1ccc(-c2cc(N(C(=O)C3CCC(C)CC3)C(C)C)c(C(=O)O)s2)cc1	1a	-	<0.5 µM
O=C(NS(=O)(=O)c1ccccc1)c1ccc2c(C3CCCCC3)c3n(c2c1)C[C@@H](O)[C@@H](O)c1ncccc1-3	-	Huh7	1–10 µM
C=CC1CC1(NC(=O)[C@@H]1C[C@@H](OC(=O)Nc2ccccc2-c2ccccc2)CN1C(=O)[C@@H](NC(=O)OC(C)(C)C)C(C)(C)C)C(=O)NS(=O)(=O)C1CC1	1b	Huh7	0.1–1 µM
N[C@@H](CO)C(=O)Nc1ccc(-c2ccc3nc(NCc4ccc(S(N)(=O)=O)cc4)nc(NC4CC4)c3n2)cc1	-	-	<0.1 µM
O=C(O)c1c(-c2ccc[nH]c2=O)c2c3occc3c(F)cc2n1Cc1cc(=O)[nH]cc1Br	-	-	<0.5 µM
CN(c1ccccc1/C=N/NC(=O)c1cc(Cl)ccc1Cl)S(=O)(=O)c1ccc(C(F)(F)F)cc1	-	Huh7	>50 µM
O=C(O)c1ccc(-c2cnc(NC(=O)C3(NC(=O)c4ccc5c(C6CCCCC6)c6n(c5c4)CC=Cc4ccccc4-6)CCCC3)s2)cc1	-	Huh7	0.01–1 µM
C=CC1CC1(NC(=O)[C@@H]1C[C@@H](OC(=O)Nc2cccc(SC)c2)CN1C(=O)[C@@H](NC(=O)OC(C)(C)C)C(C)(C)C)C(=O)NS(=O)(=O)C1CC1	1b	Huh7	1–10 µM
CC(C)S(=O)(=O)NC(=O)c1ccc2c(C3CCCCC3)c3n(c2c1)C(O)c1cc(OCc2ccccc2)ccc1-3	-	Huh7	0.01–1 µM
Cc1ccc2cc(Cn3c(C(=O)O)c(-c4ccc[nH]c4=O)c4c5occc5c(F)cc43)c(Cl)nc2c1	-	-	<0.5 µM
CC(C)S(=O)(=O)NC(=O)c1ccc2c(C3CCCCC3)c3n(c2c1)CC(C(=O)N1CCOCC1)=Cc1ccccc1-3	-	Huh7	0.01–1 µM
CS(=O)(=O)NC(=O)c1c(-c2ccc[nH]c2=O)c2c3sccc3ccc2n1Cc1cc(F)ccc1F	-	-	>1.5 µM

For reference, 3 entries again:

structure | strain | cell line | result
COc1cccc(CC(=O)N/N=C/c2ccc(Cl)cc2OS(=O)(=O)c2ccc(C)cc2)c1 | - | Huh7 | <5 µM
COC(=O)Nc1ccc(-c2ccc3nc(N)nc(N4CCS(=O)(=O)CC4)c3n2)cc1 | - | Huh7 | <0.3 µM
Cc1cc(C(=O)Nc2ccc(-c3cc(N(C(=O)C4CCC(C)CC4)C(C)C)c(C(=O)O)s3)cc2)n(C)n1 | 1a | - | >0.5 µM